The values below come from patent US20080139463A1 (priority 2005, published 2008).

The data set can be described thus: general procedure: solution-phase peptide synthesis; TFFH/DIPEA (fragment coupling); PyAOP/sym-collidine (cyclisation).
Where [1] appears, read: late stage modification step, HPLC.

In turn, “Ph-NH—C(S)— MeLeu-Val-MeLeu-Ala-D-Ala-MeLeu-MeLeu-MeVal-MeBmt(OAc)-Abu-Sar-OMe” yielded a step yield (late stage modification step) of 90%.
The same measure, in the same setting: then MeBmt(OAc)-CsA, with 92%.
“H-Val-MeLeu-Ala-D-Ala-MeLeu-MeLeu-MeVal-MeBmt(OAc)-Abu-Sar-OMe” gave a step yield (late stage modification step) of 61%. Moreover, under setting [1], the “final HPLC purity” value is given as 99%.
For “Boc-D-MeAla-EtVal-Val-MeLeu-Ala-D-Ala-MeLeu-MeLeu-MeVal-MeBmt(OAc)-Abu-Sar-OMe”, the step yield (coupling step) came out at 90%.
Substance “H-MeLeu-Val-MeLeu-Ala-D-Ala-MeLeu-MeLeu-MeVal-MeBmt(OAc)-Abu-Sar-OMe” came in with a step yield (late stage modification step) of 76%. Further, under setting [1], the “final HPLC purity” value is 98%.
As for “Boc-D-MeAla-EtVal-Val-MeLeu-Ala-D-Ala-MeLeu-MeLeu-MeVal-MeBmt(OAc)-Abu-NMe-CH2—CH2—OH”, the step yield (late stage modification step) is 81%.
For the substance “H-D-MeAla-EtVal-Val-MeLeu-Ala-D-Ala-MeLeu-MeLeu-MeVal-MeBmt-Abu-OH”, the step yield (late stage modification step) turned out to be 64%. Further, under setting [1], the “crude HPLC purity” value was found to be 86%.
